A mixed list of measured activities; the numbers were collected in NIAID ChemDB.

Shared fields: whole-cell or culture tests; species: Aspergillus fumigatus

Neighbouring rows are from separate reports. MIC50, MIC90 and the like: level of inhibition, or share of isolates inhibited.

{"smiles": "Cc1nnc(NS(=O)(=O)c2ccc(N)cc2)s1", "endpoint": "MIC", "strain": "IFM 41362", "value": "≥256 µg/mL"}
{"smiles": "CC1/C=C/C=C/C=C/C=C/C(O[C@@H]2O[C@H](C)[C@@H](O)[C@H](N)[C@@H]2O)CC2OC(O)(CC(O)CC(O)C/C=C/C(=O)OC1C)CC(O)C2C(=O)O", "endpoint": "MIC100", "strain": "CGMCC 3.3552", "method": "broth dilution", "value": "6.25 µg/mL"}
{"smiles": "C=C1C(=O)OCC1COC(=O)CCCCC", "endpoint": "MIC", "strain": "IFO8866", "value": "50 µg/mL"}
{"smiles": "CC1CCC2(OC1)OC1CC3C4CCC5C[C@@H](OC6OC(CO)C(OC7OC(CO)C(O)C(OC8CC(OC9OC(CO)C(O)C(O)C9O)C(O)C(CO)O8)C7OC7OC(CO)C(O)C(O)C7O)C(O)C6O)[C@H](O)C[C@]5(C)C4CC[C@]3(C)C1[C@@H]2C", "endpoint": "MIC", "method": "broth dilution", "value": "30 µg/mL"}
{"smiles": "C[C@H]1[C@H](O)[C@@H](C)/C=C/C=C/C=C/C=C/C=C/C=C/C=C/[C@H](O[C@@H]2O[C@H](C)[C@@H](O)[C@H](N)[C@@H]2O)C[C@@H]2O[C@](O)(C[C@@H](O)C[C@@H](O)CC[C@H](O)[C@@H](O)C[C@@H](O)CC(=O)O[C@H]1C)C[C@H](O)[C@H]2C(=O)O", "endpoint": "MIC", "strain": "X807219", "value": "1 µg/mL"}
{"smiles": "OC(Cn1cncn1)(c1ccc(C(F)(F)F)cc1)C(F)(F)c1cccs1", "endpoint": "MIC", "strain": "IFM 40808", "value": ">64 µg/mL"}
{"smiles": "Cc1cc(NS(=O)(=O)c2ccc(N)cc2)nc(C)n1", "endpoint": "MIC", "strain": "IFM 51126", "value": "≥256 µg/mL"}
{"smiles": "CCC(C)CC(C)CCCCCCCCC(=O)N[C@H]1C[C@@H](O)[C@H](NCCN)NC(=O)[C@@H]2[C@@H](O)CCN2C(=O)[C@H]([C@H](O)CCN)NC(=O)[C@H]([C@H](O)[C@@H](O)c2ccc(O)cc2)NC(=O)[C@@H]2C[C@@H](O)CN2C(=O)[C@H]([C@@H](C)O)NC1=O", "endpoint": "MIC", "strain": "ND231", "method": "broth dilution", "value": "0.125 µg/mL"}
{"smiles": "OC(Cn1cncn1)(c1ccc(F)cc1)C(F)(F)c1cccs1", "endpoint": "MIC", "strain": "IFM 40808", "value": "1 µg/mL"}
{"smiles": "C[C@@H](c1ncncc1F)[C@](O)(Cn1cncn1)c1ccc(F)cc1F", "endpoint": "MIC", "method": "broth dilution", "value": "0.5 µg/mL"}
{"smiles": "O=C(Nc1c(F)cccc1F)OCCCN1CCN(c2nc3ccccc3s2)CC1", "endpoint": "MIC", "strain": "CF924390", "value": "0.47 µg/mL"}
{"smiles": "CC[C@@H]([C@H](C)O)n1ncn(-c2ccc(N3CCN(c4ccc(OC[C@@H]5CO[C@@](Cn6cncn6)(c6ccc(F)cc6F)C5)cc4)CC3)cc2)c1=O", "endpoint": "MIC90", "strain": "12 strains", "value": "0.12 µg/mL"}
{"smiles": "COC(=O)[C@H]1[C@@H]2C[C@@H](O[C@@H]3O[C@H](C)[C@@H](O)[C@H](N)[C@@H]3O)/C=C/C=C/C=C/C=C/C=C/C=C/C=C/[C@H](C)[C@@H](O)[C@H](C)[C@H](C)OC(=O)C[C@H](O)C[C@H](O)[C@@H](O)CC[C@H](O)C[C@H](O)C[C@](O)(C[C@@H]1O)O2", "endpoint": "MIC90", "strain": "35 isolates", "value": "2 µg/mL"}
{"smiles": "CC[C@@H]([C@H](C)O)n1ncn(-c2ccc(N3CCN(c4ccc(OC[C@@H]5CO[C@@](Cn6cncn6)(c6ccc(F)cc6F)C5)cc4)CC3)cc2)c1=O", "endpoint": "MIC90", "strain": "17 isolates", "value": "0.031 µg/mL"}
{"smiles": "COc1ccc(NS(=O)(=O)c2ccc(N)cc2)nn1", "endpoint": "MIC", "strain": "IFM 51126", "value": "≥256 µg/mL"}
{"smiles": "Cc1ccc(C(C)C)cc1O", "endpoint": "MLC", "strain": "ATCC 46645", "value": "0.32 µg/mL"}
{"smiles": "OC(Cn1cncn1)(c1ccc(C(F)(F)F)cc1)C(F)(F)c1nc2ccccc2s1", "endpoint": "MIC", "strain": "IFM 40808", "value": "4 µg/mL"}
{"smiles": "CC(C(O)(Cn1cncn1)c1ccc(F)cc1F)S(C)(=O)=O", "endpoint": "MIC", "strain": "H11-20", "value": "40 µg/mL"}
{"smiles": "OC(Cn1cncn1)(c1ccc(F)cc1F)C(F)(F)c1nc2ccccc2o1", "endpoint": "MIC", "strain": "IFM 40808", "value": "8 µg/mL"}
{"smiles": "CCS(=O)(=O)C(F)(F)C(O)(Cn1cncn1)c1ccc(F)cc1F", "endpoint": "MIC", "strain": "IFM 40808", "value": "2 µg/mL"}
{"smiles": "CCC1/C=C/C=C/C=C/C=C/C(OC2OC(C)C(O)C(N)C2O)CC2OC(O)(CC(O)CC(O)C/C=C/C(=O)OC1C)CC(O)C2C(=O)O", "endpoint": "MIC100", "strain": "ATCC 3.13", "method": "broth dilution", "value": "3.13 µg/mL"}
{"smiles": "Cc1nn(S(=O)(=O)c2ccccc2)c(C)c1C(F)(F)C(O)(Cn1cncn1)c1ccc(F)cc1F", "endpoint": "MIC", "strain": "IFM 40808", "value": ">8 µg/mL"}
{"smiles": "O=c1c(OC2CCCC2)c(N2CCN(S(=O)(=O)NCc3ccccc3)CC2)cnn1-c1cccc(Cl)c1", "endpoint": "MIC", "strain": "ND158", "method": "broth dilution", "value": "1.56 µg/mL"}
{"smiles": "COC(=O)[C@H]1[C@@H]2C[C@@H](O[C@@H]3O[C@H](C)[C@@H](O)[C@H](N)[C@@H]3O)/C=C/C=C/C=C/C=C/C=C/C=C/C=C/[C@H](C)[C@@H](O)[C@H](C)[C@H](C)OC(=O)C[C@H](O)C[C@H](O)[C@@H](O)CC[C@H](O)C[C@H](O)C[C@](O)(C[C@@H]1O)O2", "endpoint": "MLC", "strain": "H11-20", "value": "0.29 µg/mL"}
{"smiles": "CCCCCOc1ccc(-c2cc(-c3ccc(C(=O)N[C@H]4C[C@@H](O)[C@@H](O)NC(=O)[C@@H]5[C@@H](O)[C@@H](C)CN5C(=O)[C@H]([C@H](O)CC(N)=O)NC(=O)[C@H]([C@H](O)[C@@H](O)c5ccc(O)c(OS(=O)(=O)O)c5)NC(=O)[C@@H]5C[C@@H](O)CN5C(=O)[C@H]([C@@H](C)O)NC4=O)cc3)no2)cc1", "endpoint": "MFC50", "strain": "19 isolates", "value": ">64 µg/mL"}
{"smiles": "CCC(C)n1ncn(-c2ccc(N3CCN(c4ccc(OC[C@H]5CO[C@](Cn6cncn6)(c6ccc(Cl)cc6Cl)O5)cc4)CC3)cc2)c1=O", "endpoint": "MIC90", "strain": "12 strains", "value": "1 µg/mL"}